Results of unrelated studies side by side (data: NIAID ChemDB).

All rows: tests in culture

Zones are inhibition diameters on agar. MIC50, MIC90 and the like: level of inhibition, or share of isolates inhibited. Neighbouring rows are from separate reports. An empty or dashed field is not shown.

compound,measure,species,strain,dose,method,value
Cc1ccc(N2NOC(=O)C2S(=O)(=O)Nc2ccc(-n3c(-c4cccc(Cl)c4)nc4ccccc4c3=O)cc2)cc1,zone,Aspergillus clavatus,MTCC323,250 µg/mL,agar diffusion,24 mm
O=C/C=C/c1ccccc1,MIC,Aspergillus terreus,UAB680,,agar,500 µM
Cc1ccc(N2NOC(=O)C2S(=O)(=O)Nc2nc(-c3ccc(Br)cc3)cs2)cc1,MIC,Aspergillus clavatus,MTCC323,,broth dilution,250 µg/mL
[Al]#[P],MIC,Aspergillus ochraceus,,,agar,2 µg/mL
C[C@H]1[C@H](O)[C@@H](C)/C=C/C=C/C=C/C=C/C=C/C=C/C=C/[C@H](O[C@@H]2O[C@H](C)[C@@H](O)[C@H](N)[C@@H]2O)C[C@@H]2O[C@](O)(C[C@@H](O)C[C@@H](O)CC[C@H](O)[C@@H](O)C[C@@H](O)CC(=O)O[C@H]1C)C[C@H](O)[C@H]2C(=O)O,Geometric mean MIC,Aspergillus fumigatus,60 isolates,,,0.94 µg/mL
Cc1ccc(N2NOC(=O)C2S(=O)(=O)Nc2nc(-c3ccc(Cl)cc3Cl)cs2)cc1,zone,Aspergillus clavatus,MTCC323,250 µg/mL,agar diffusion,22 mm
COc1ccccc1C=O,MIC,Aspergillus terreus,UAB698,,agar,2500 µM
C[C@@H]1[C@H](O)[C@@H](C)/C=C/C=C/CC/C=C/C=C/C=C/C=C/C(O[C@H]2O[C@H](C)[C@@H](O)[C@H](N)[C@@H]2O)CC2O[C@](O)(CC(O)C(O)CCC(O)CC(O)CC(O)CC(=O)O[C@H]1C)CC(O)C2C(=O)O,MIC,Aspergillus clavatus,MTCC323,,broth dilution,100 µg/mL
COc1c(O)cc2oc(-c3ccc(O)cc3)cc(=O)c2c1O,MIC,Aspergillus tubingensis,,,broth dilution,300 µg/mL
Cc1cc(CBr)nc(Nc2ccccc2)n1,zone,Aspergillus niger,,100 µg/mL,,2 mm
Cc1ccc(N2NOC(=O)C2S(=O)(=O)Nc2nc3ccc(Cl)cc3s2)cc1,zone,Aspergillus clavatus,MTCC323,250 µg/mL,agar diffusion,22 mm
CC(C)c1cc2c(c(O)c1O)[C@@]1(C(=O)O)CCCC(C)(C)C1CC2,zone,Aspergillus tubingensis,,400 µg/mL,agar diffusion,5.2 mm
Cc1nc(Nc2ccccc2)nc(C)c1C#N,zone,Aspergillus niger,,100 µg/mL,,1.9 mm
COc1cc(C=O)cc(OC)c1,MIC,Aspergillus terreus,UAB698,,agar,1000 µM
CC1=CC(=O)c2c(O)cccc2C1=O,MFC100,Aspergillus oryzae,CCAM 080006,,broth dilution,2.5 µg/mL
Cc1nc(Nc2ccccc2)nc(C)c1Br,zone,Aspergillus niger,,10 µg/mL,,1.6 mm

For reference, 2 entries again:

compound,measure,species,strain,dose,method,value
COc1cc(C=O)cc(OC)c1,MIC,Aspergillus terreus,UAB698,,agar,1000 µM
[Al]#[P],MIC,Aspergillus ochraceus,,,agar,2 µg/mL